Compound potency records, mixed from different reports. Data source: NIAID ChemDB in PubChem.

Common to all: toxicity to cultured cells; cell line: U-937; measure: CC50

CCn: concentration that lowers growth or viability of the cells by n%. Lines come from different laboratories, so protocols vary. Blank or dashed fields: not listed here. Two numbers with a dash give a range or band.

| SMILES | method | value |
|---|---|---|
| CC(CO)n1cnc2c(Cl)ncnc21 | - | >100 µM |
| CC(C)[C@H](NC(=O)OCc1ccccc1)C(=O)N[C@@H](Cc1ccccc1)[C@@H](O)[C@@H](NCc1ccc(Br)cc1)C(=O)N[C@H](C(=O)NCc1nc2ccccc2[nH]1)C(C)C | - | 5.8 µM |
| CC1(C)Oc2ccc3ccc(=O)oc3c2[C@@H](OC(=O)C23CCC(C)(C(=O)O2)C3(C)C)[C@H]1OC(=O)C12CCC(C)(C(=O)O1)C2(C)C | - | 24.6 µM |
| CC(C)[C@H](NC(=O)[C@H](NCc1ccccc1)[C@H](O)[C@H](Cc1ccccc1)NC(=O)[C@@H](NC(=O)OCc1ccccc1)C(C)(C)C)C(=O)NCc1ccccc1 | - | 9.1 µM |
| Nc1nc(NC2CC2)c2ncn([C@H]3CO[C@@H](CO)O3)c2n1 | MTT | >250 µM |
| COP(=O)(c1cc(C)cc(CCC#N)c1)c1c(C(N)=O)[nH]c2ccc(Cl)cc12 | MTS | 24.6 µM |
| O=c1cc(CCl)nc2c3ncn([C@H]4C[C@H](O)[C@@H](COP(=O)(O)O)O4)c3ncn12 | - | 150 µM |
| O=S(=O)(c1cccc2cnccc12)N1CCNCC1 | - | 10.5 µg/mL |
| NOCc1c(F)cccc1Cl | - | 44.8 µg/mL |
| Cn1cc(C(=O)O)c(=O)c2cc(F)c(N3CC=C(c4ccccc4)CC3)c(C(F)(F)F)c21 | MTT | 0.85 µM |
| O=C(OC(Cn1ccnc1)c1ccc(Cl)cc1)c1ccc(-c2ccccc2)cc1 | MTT | 88.3 µg/mL |
| Nc1ncc2ncn(CCO)c2n1 | - | >100 µM |
| C=C(CC[C@@H](C)[C@H]1CCC2C3C(CC[C@@]21C)[C@@]1(CO)CC[C@H](O)CC1=C[C@@H]3OC(C)=O)C(C)C | XTT | 10.6 µM |
| CCCc1cc(=O)oc2c3c(c4c(c12)OC(C)(C)CC4)O[C@@H](C)[C@H](C)[C@@H]3O | - | 10–20 µM |
| Cc1cn([C@H]2C[C@H](N=[N+]=[N-])[C@@H](CO)O2)c(=O)[nH]c1=O | absorbance | 1520 µM |
| Nc1c(-c2nccc(=O)[nH]2)ncn1[C@@H]1O[C@H](CO)[C@@H](O)[C@H]1O | - | >1500 µM |
| Cn1c2ccccc2c(=O)c2c(O)cccc21 | - | 35 µg/mL |
| CC(O)Cn1cnc2c(Cl)nc(N)nc21 | - | 100 µM |
| C=C(C)[C@@H]1CC[C@]2(C(=O)NCCCCCCCC(=O)N[C@@H](CC(C)C)[C@@H](O)CC(=O)O)CC[C@]3(C)[C@H](CC[C@@H]4[C@@]5(C)CC[C@H](O)C(C)(C)[C@@H]5CC[C@]43C)[C@@H]12 | - | >10 µM |
| Nc1nc(=O)n([C@@H]2CC[C@H](CO)O2)cc1F | - | 70 µM |
| Nc1nc(Cl)c2ncn(CCO)c2n1 | - | >100 µM |

2 of the rows above, restated:

SMILES	method	value
Nc1nc(=O)n([C@@H]2CC[C@H](CO)O2)cc1F	-	70 µM
Cn1cc(C(=O)O)c(=O)c2cc(F)c(N3CC=C(c4ccccc4)CC3)c(C(F)(F)F)c21	MTT	0.85 µM